Anti-infective test results gathered from many reports (values: NIAID ChemDB through PubChem).

Common to all: growth or infection tests; agent: Candida albicans; measure: MIC

Rows are shuffled and stem from different studies.

compound,strain,method,setting,result
CC(C)CCOC[C@H]1CC[C@@](C)(C=O)[C@]1(C)C(=O)O,2005E,,,462 µM
COC(=O)[C@]1(C)CCC[C@@]2(C)[C@@H]3CC[C@@H]4C[C@@]3(CC[C@@H]21)C[C@@H]4C,UBC1,,,>50 µg/mL
Cc1ccc(C2=CC(c3nnc4c5ccccc5c(=O)[nH]n34)=C(C#N)/C(=C/C#N)N2)cc1,,,,>200 µg/mL
C[C@H]1O[C@@H](OC[C@H]2CC[C@@](C)(C=O)[C@]2(C)C(=O)O)C[C@@H]2OC(C)(C)O[C@@H]21,2005E,,,84 µM
N=C(N)c1ccc(NC(=O)c2cc3cc(C(=N)N)ccc3o2)cc1,,,,>60 µg/mL
CC(C)C1=CC2CC3(C=O)[C@@H]4CC[C@@H](C)[C@H]4CC2(C(O)CCc2ccccc2)[C@]13C(=O)O,,,,16 µg/mL
Clc1ccc(COC(Cn2ccnc2)c2ccc(Cl)cc2Cl)c(Cl)c1,,,,110.8 µg/mL
Cc1cc(C)[n+](-c2cccc(S(=O)(=O)Nc3ccc4c(c3)Sc3ccccc3O4)c2)c(C)c1,C316,,,15 µg/mL
COc1ccc(/C=N\N(C)Cc2cccc3ccccc23)cc1,,,,>64 µg/mL
Cc1nc(Nc2ccc(C3=NC(=O)NC(c4ccc(Br)cc4)C3)cc2)c2c3c(sc2n1)CCCC3,,,,170 µg/mL
Clc1ccc(COC(Cn2ccnc2)c2ccc(Cl)cc2Cl)c(Cl)c1,ATCC 10231,,,15.6 µg/mL
CC(=O)Oc1cc(Cl)ccc1C(=O)N(C(C)=O)c1ccc(Br)cc1,ATCC 44859,,,31.25 µg/mL
O=S(=O)(Nc1ccc2c(c1)Sc1ccccc1O2)c1ccc(Cl)cc1,C316,,,9 µg/mL
O=[N+]([O-])c1ccc(/C=C\C2=NCCS2)cc1,,,,42 µg/mL
O=c1[nH]n2c(-c3cc(-c4ccccc4)no3)nnc2c2ccccc12,,,,25 µg/mL
C/C(=N\NC(=S)Nc1ccc(C)cc1)c1ccccn1,ATCC 10231,broth dilution,,23.9 µM
CC(C)C1=CC2CC3(C=O)C4CC[C@@H](C)C4CC2(CCOC(=O)c2ccc(S(N)(=O)=O)cc2)C13C(=O)O,,,,128 µg/mL
C=C1CCC2C(C)(C)CCC[C@@]2(C)[C@@H]1CCC/C(C)=C/C(=O)OC,UBC1,,,>50 µg/mL
Cc1nc(Nc2ccc(C3=NOC(c4ccc([N+](=O)[O-])cc4)C3)cc2)c2c3c(sc2n1)CCCC3,,,,110 µg/mL
CC(=O)Oc1cc(Cl)ccc1C(=O)Nc1ccc(Cl)cc1,ATCC 44859,,,31.25 µg/mL
C(=C/c1ccccc1)/C1=NCCS1,,,,3 µg/mL
O=CN1N=C(c2ccccc2)CC1c1nnc2c3ccccc3c(=O)[nH]n12,,,,100 µg/mL
C(=C/c1ccco1)/C1=NCCS1,,,,58 µg/mL
Cc1cc(C)c(S(=O)(=O)Nc2ccc3c(c2)Sc2ccccc2O3)c(C)c1,C316,,,5 µg/mL
N=C(N)c1ccc(OCCCCCOc2ccc(C(=N)N)cc2)cc1,,,,3 µg/mL
Cc1ccc(-c2cc(-c3nnc4c5ccccc5c(=O)[nH]n34)on2)cc1,,,,12.5 µg/mL
N=C(N)c1ccc(-c2cc3cc(C(=N)N)ccc3s2)cc1,,,,60 µg/mL
CC(=O)Oc1c(Cl)cccc1C(=O)Nc1ccc(C(F)(F)F)cc1,ATCC 44859,,,15.63 µg/mL
C/C(=N\NC(=S)Nc1ccc(F)cc1)c1ccccn1,ATCC 10231,broth dilution,,20.6 µM
CN(Cc1cccc2ccccc12)/N=C\C=C\c1ccccc1,,,,>64 µg/mL
Cc1nc(Nc2ccc(C3=NN(c4ccccc4)C(c4ccc(Br)cc4)C3)cc2)c2c3c(sc2n1)CCCC3,,,,105 µg/mL
CC(C)C1=CC2CC3(C=O)[C@@H]4CC[C@@H](C)[C@H]4CC2(C(O)CCC2CCCCC2)C13C(=O)O,,,,0.5 µg/mL
O=C(Nc1ccc(Cl)c(Cl)c1)Nc1ccc2c(c1)Sc1ccccc1O2,C316,,,0.8 µg/mL
CCCCCCC(O)C12C[C@@H]3[C@H](C)CC[C@H]3C3(C=O)CC1C=C(C(C)C)[C@@]23C(=O)O,,,,0.25 µg/mL
N=C(N)c1ccc2oc(-c3cnc(-c4cc5cc(C(=N)N)ccc5o4)[nH]3)cc2c1,,,,>60 µg/mL
CC(=O)Oc1c(Cl)cccc1C(=O)Nc1cccc(Cl)c1,ATCC 44859,,,62.5 µg/mL
Cc1ccc(/C=N\N(C)Cc2cccc3ccccc23)cc1,,,,>64 µg/mL
C(=C/c1ccccn1)/C1=NCCS1,,,,5 µg/mL
Cc1c(O)cccc1C(=O)N[C@@H](CSc1ccccc1)[C@H](O)CN1C[C@H]2CCCC[C@H]2C[C@H]1C(=O)NC(C)(C)C,I168B,,,>64 µg/mL
C=C1/C=C(\C)[C@H](CC)OC(=O)[C@H](C)C(=O)C(O)(CO)C/C(OC)=C/[C@@H](C)C1,CA2,,,2 µg/mL
CN(Cc1cccc2ccsc12)/N=C\C=C\c1ccccc1,,,,>64 µg/mL
CCCCCCCCCCCC[n+]1cccc2ccccc21,ATCC 44859,broth dilution,24 h,0.01562 µg/mL
CC(=O)Oc1cc(Cl)ccc1C(=O)Nc1ccc(Br)cc1,ATCC 44859,,,15.63 µg/mL
C=C1CCC2C(C)(C)CCC[C@]2(C)C1CCCC(C)=O,UBC1,,,>50 µg/mL
O=C(Nc1cccc(S(=O)(=O)Nc2ccc3c(c2)Sc2ccccc2O3)c1)Nc1ccc(Cl)c(Cl)c1,C316,,,0.5 µg/mL
COCC(=O)OC[C@H]1CC[C@@](C)(C=O)[C@]1(C)C(=O)O,2005E,,,459 µM
O=C(Nc1ccc(S(=O)(=O)Nc2ccc3c(c2)Sc2ccccc2O3)cc1)Nc1ccc(Cl)c(Cl)c1,C316,,,0.6 µg/mL
O=c1occ(/C=C\C2=NCCS2)c2ccccc12,,,,88 µg/mL

The last 7 rows once more:

CCCCCCCCCCCC[n+]1cccc2ccccc21 ; strain: ATCC 44859 ; method: broth dilution ; setting: 24 h ; result: 0.01562 µg/mL
CC(=O)Oc1cc(Cl)ccc1C(=O)Nc1ccc(Br)cc1 ; strain: ATCC 44859 ; result: 15.63 µg/mL
C=C1CCC2C(C)(C)CCC[C@]2(C)C1CCCC(C)=O ; strain: UBC1 ; result: >50 µg/mL
O=C(Nc1cccc(S(=O)(=O)Nc2ccc3c(c2)Sc2ccccc2O3)c1)Nc1ccc(Cl)c(Cl)c1 ; strain: C316 ; result: 0.5 µg/mL
COCC(=O)OC[C@H]1CC[C@@](C)(C=O)[C@]1(C)C(=O)O ; strain: 2005E ; result: 459 µM
O=C(Nc1ccc(S(=O)(=O)Nc2ccc3c(c2)Sc2ccccc2O3)cc1)Nc1ccc(Cl)c(Cl)c1 ; strain: C316 ; result: 0.6 µg/mL
O=c1occ(/C=C\C2=NCCS2)c2ccccc12 ; result: 88 µg/mL

An empty or dashed field is not shown.